One sequence from paper PMC4380410 can be followed below.

The target in this data set is T1, CfaRfull-HIS6 (Streptomyces scabies 87-22) (UniProt C9ZEC8).
T1 sequence: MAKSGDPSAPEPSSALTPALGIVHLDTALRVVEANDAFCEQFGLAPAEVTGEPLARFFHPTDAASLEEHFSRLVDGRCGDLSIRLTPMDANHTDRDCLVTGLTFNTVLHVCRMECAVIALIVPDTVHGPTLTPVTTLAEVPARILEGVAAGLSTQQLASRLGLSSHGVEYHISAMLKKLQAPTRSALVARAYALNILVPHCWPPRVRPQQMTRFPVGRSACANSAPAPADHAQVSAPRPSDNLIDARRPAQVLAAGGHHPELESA
Description: EMSA. The following applies: 50 ng DNA, 3.7 pmol protein; LightShift Chemiluminescent EMSA kit per manufacturer; pH and temperature not stated; recombinant protein; residues 1-265; protein details: C-terminal His6; probe letters rebuilt from the primers and the genome. A general note: Mobility shift assays separate free from complexed probe on a gel.

On to “GCACAGGAAGGAGGAGAACCCCTCACCTCGGGCCCTTGGACCCGACACACCCGCAGCGCGTGCGACGGTTCCTGCGCCGGCCGGCCTGACAAACCAGGGCGAGACGCCGCATCTGCGGAACCGGTCGACCCGCAGACGAATCGTGGCCGACGCCAACCCGAATGCGGGGACTAGGGATTCTCCTAGTCGACCTTCGTTCTGTAGCCCTTGTATGGTCGCATTGCCTCCGCAGGTCGACCCCTTTCGGCACCATAGGAGACCCTCTTGGCGAACATCGAATCGACCATCAAGCACATCCTGGTCGACGATCTCTTCATCACTGTGCCG (double strand) [fragment a]”, for which the binding result is listed as “binds”.
